Experimental data as given in US20210292393A1 (published 2021).
Changes are numbered by the printed parent chain.

B1: mAb 494 (antibody, V domains shown)
VH: EVQLVESGGGLVQPGGSLRLSCAASGFTVSSNYMSWVRQAPGKGLEWVSVIYSGGSTFYADSVKGRFTISRDNSKNTLYLQMNSLRAEDTAVYYCARDSGDQLLDYWGQGTLVTVSS
VL: DIQLTQSPSFLSASVGDRVTITCRASQGISSYLAWYQQKPGKAPKLLIYAASTLQSGVPSRFSGSGSGTEFTLTISSLQPEDFATYYCQQLNSYPPFTFGPGTKVDIKR
B2: mAb 462 (antibody, V domains shown)
VH: QVQLVESGGGVVQPGRSLRLSCAASGFTFSSYGMHWVRQAPGKGLEWVAVIWYDGNNKYYADSVKGRFTISRDNSKNTLYLQMNSLRAEDTAVYYCAKDPTWFGELPSYYYYGMDVWGQGTTVTVSS
VL: not shown
B3: mAb 506 (antibody, V domains shown)
VH: QITLKESGPTLVKPTQTLTLTCTFSGFSLSTSGVGVGWIRQPPGKALEWLALIYWDDDKRYSPSLKSRLTITKDTSKNQVVLTMTNMDPVDTATYYCAHHSLSSIFDYWGQGTLVTVSS
VL: QSALTQPASVSGSPGQSITISCTGTSSDVGDYNYVSWYQQHPGKAPKLMIYEVSNRPSGVSNRFSGSKSGNTASLTISGLQAEDEADYYCSSYTSSSTVFGGGTKLTVLG
B4: mAb 553 (antibody, V domains shown)
VH: QVQLVQSGAEVKKPGASVKVSCKASGYTFTSYGISWVRQAPGQGLEWMGWISAYNGNTNYAQKLQGRVTMTTDTSTSTAYMELRSLRSDDTAVYYCARDRGYAATFGVFDYWGQGTLVTVSS
VL: not shown
B5: mAb 414 (antibody, V domains shown)
VH: QVQLVQSGAEVKKPGASVKVSCKASGYTFTSYYMHWVRQAPGQGLEWMGIINPSGGSTSYAQKFQGRVTMTRDTSTSTVYMELSSLRSEDTAVYYCARDPPGRDFWSGYYFGAPDYYYYYGMDVWGQGTTVTVSS
VL: DIQMTQSPSSLSASVGDRVTITCRASQGISNYLAWFQQKPGKAPKSLIYAASSLQSGVPSKFSGSGSGTDFTLTISSLQPEDFATYYCQQYNSYPYTFGQGTKLEIKR
B6: mAb 297 (antibody, V domains shown)
VH: QVQLVESGGGVVQPGRSLRLSCAASGFTFSSYAMHWVRQAPGKGLEWVAVISYDGSNKYYADSVKGRFTISRDNSKNTLYLQMNSLRAEDTAVYYCARSFRGGYYYGMDVWGQGTTVTVSS
VL: DIQLTQSPSFLSASVGDRVTITCRASQGISSYLAWYQQKPGKAPKLLIYAASTLQSGVPSRFSGSGSGTEFTLTISSLQPEDFATYYCQQLNSYPLFTFGPGTKVDIK
B7: mAb 309 (antibody, V domains shown)
VH: B6 VH with S99P, F100Y, R101S, G103S, Y105Q, Y106S, G107Y, M108F, V110Y, T116L
VL: not shown
B8: mAb 562 (antibody, V domains shown)
VH: B6 VH with S99A, F100S, R101S, Y105Q, Y106G, G107P, M108F, V110P, T116L
VL: QSALTQPASVSGSPGQSITISCTGTSSDVGGYNYVSWYQQHPGKAPKLMIYDVSNRPSGVSNRFSGSKSGNTASLTISGLQAEDEADYYCSSYTSSSTLLYVFGTGTKVTVLG

Biological target: SARS-CoV-2 spike protein on infectious SARS-CoV-2 virus, clinical isolate USA/WA/1/2020 (SARS-CoV-2, UniProt P0DTC2 14-1273)
Test: cell-based or functional assay

Row | Binder | Lab 1 live virus IC50 | Lab3 live virus IC50
1 | B1 | 2.5 µg/mL | 23.6 µg/mL
2 | B2 | 10 µg/mL | > 100 µg/mL
3 | B3 | 1.25 µg/mL | 2 µg/mL
4 | B4 | 20 µg/mL | > 100 µg/mL
5 | B5 | > 20 µg/mL | > 100 µg/mL
6 | B6 | 1.25 µg/mL | 9.9 µg/mL
7 | B7 | > 20 µg/mL | > 100 µg/mL
8 | B8 | > 40 µg/mL | > 100 µg/mL
